Test results reported in publication PMC4077696 (PLoS Biology, 2014).
Where a name gives a salt, the structure may show the parent alone.

Test system: P. falciparum 3D7
Settings: for Effect of timed addition across parasite stages: 024, 025 15 µM; for Effect of timed addition across parasite stages / Effect of 30 min treatment of rings before inhibitor-free medium: chloroquine 150 ng/ml, artemisinin 100 ng/ml
[1] = 15 µM, timed addition, parasitemia at 72 h

SMILES | Effect of timed addition across parasite stages | Effect of 30 min treatment of rings before inhibitor-free medium | Growth after wash-out at any parasite stage, in words (15 µM) | also measured
C[C@@H]1CC[C@H]2[C@@H](C)C(=O)O[C@@H]3O[C@@]4(C)CC[C@@H]1[C@]32OO4 [artemisinin, reference compound] | sensitive | killed parasites | – | –
CCN(CC)CCCC(C)Nc1ccnc2cc(Cl)ccc12 (stereo not drawn) [chloroquine, reference compound] | sensitive | killed parasites | – | –
CC(C)C[C@H](NC(=O)[C@@H](NC(=O)[C@H](CCCCN)NS(=O)(=O)Cc1ccccc1)C(C)C)[C@@H](O)CC(=O)NCCc1ccccc1 [compound 024, PhCH2SO2-Lys(NH2)-Val-Sta-NH(CH2)2Ph .TFA] | did not have any effect on parasite growth | – | did not affect growth | –
CC[C@H](C)[C@H](NC(=O)[C@@H](NC(=O)[C@H](CCCNC(=N)N)NS(=O)(=O)Cc1ccccc1)C(C)C)[C@@H](O)CC(=O)NCCc1ccccc1 [compound 025, PhCH2SO2Arg-Val-AHMHpA-NH(CH2)2Ph . TFA] | did not have any effect on parasite growth | – | did not affect growth | –
CC(C)C[C@H](NC(=O)[C@@H](NC(=O)[C@H](CCCNC(=N)N)NS(=O)(=O)Cc1ccccc1)C(C)C)[C@@H](O)CC(=O)NCCc1ccccc1 [compound 916, PhCH2SO2-Arg(NH2)-Val-Sta-NH(CH2)2Ph .TFA] | – | – | – | Treatment duration that adversely affected growth (15 µM from rings, wash-out, parasitemia at 72 h): > 23 h; Growth after treatment of rings for 1–20 h then inhibitor-free medium (15 µM, parasitemia at 72 h): completely recovered; Effect of addition to rings or early trophozoites [1]: lethal; Effect of addition to schizonts [1]: resistant
